Compound potency records, mixed from different reports. Data source: NIAID ChemDB in PubChem.

Common to all: growth or infection tests; agent: Candida albicans

ECn is the concentration giving n% inhibition of infection, replication or growth. Blank or dashed fields: not listed here. Rows are shuffled and stem from different studies. MIC50, MIC90 and the like: level of inhibition, or share of isolates inhibited.

structure | strain | method | endpoint | conditions | mutations | value
COc1ccc(C=O)c(OC)c1OC | ATCC 90028 | broth dilution | MIC50 |  |  | 1000 µg/mL
Cc1c(N2C[C@@H]3CCC[C@@H](N)[C@H]3C2)c(F)cn2c(=O)c(C(=O)O)cc(C3CC3)c12.Cl | CCH442 |  | MIC |  |  | 50 µg/mL
CCCCCCCCCCCCCCCC[n+]1ccccc1 | CCH442 |  | EC50 |  |  | 3.7 µM
C=C(CCC1(OC)O[C@H]2C[C@H]3[C@@H]4CC=C5C[C@@H](O)[C@H](O)[C@@H](O[C@@H]6OC[C@@H](O)[C@H](O)[C@H]6O)[C@]5(C)[C@H]4CC[C@]3(C)[C@H]2[C@@H]1C)CO[C@@H]1O[C@H](CO)[C@@H](O)[C@H](O)[C@H]1O |  |  | MIC |  |  | ≥20 µg/mL
Oc1c(Cl)cc(Cl)c2cccnc12 | ATCC 60913 |  | MIC | 48 h |  | 6.2 µg/mL
CCCCCCCCCCCC[n+]1ccccc1 | CCH442 |  | MIC |  |  | 22 µM
CNC(=S)N/N=C(\C)c1ccc(-n2ccnc2)cc1 | ATCC 18804 | broth dilution | MIC50 |  |  | >915 µM
Clc1ccc(-n2ncc(C(c3ccccc3)n3ccnc3)c2-c2ccccc2Cl)c(Cl)c1 |  |  | MBC |  |  | 33.3 µM
CCCCOC(=O)C1(O)CC(O)C(OC(=O)/C=C/c2ccc(O)c(OC)c2)C(O)C1 | ATCC 10231 |  | MIC |  |  | >1000 µg/mL
O=C(O)/C=C/c1ccccc1 | ATCC 10231 | broth dilution / turbidity | EC50 |  |  | 0.74 µM
Cn1nc(-c2ccccc2)nc2c(=O)n(C)c(=O)nc1-2 | IFO 0583 |  | MIC |  |  | 5 µg/mL
O=C(N/N=C/c1ccc(-n2ccnc2)cc1)c1ccc(Cl)cc1 | ATCC 18804 | broth dilution | MIC50 |  |  | >769.8 µM
Oc1cccc2ccc(/C=C/c3cccc(Cl)c3)nc12 |  |  | MIC80 |  |  | 15.63 µg/mL
Cc1ccc(-c2nc3c(=O)n(-c4ccccc4)c(=O)nc-3n(C)n2)cc1 | IFO 0583 |  | MIC |  |  | 50 µg/mL
COC[C@@H](N)[C@@H]1CCN(c2c(F)cn3c(=O)c(C(=O)O)cc(C4CC4)c3c2C)C1.Cl | CCH442 |  | MIC |  |  | 100 µg/mL
CCCCCCCCCC[n+]1ccccc1.[Cl-] | CCH442 |  | MIC |  |  | 200 µM
O=C(Cc1ccc(O)cc1)NCCc1ccc2c(c1)OCO2 | Clinical isolate | broth dilution | MIC80 |  | Fluconazole-resistant | >64 µg/mL
CCCCOC(=O)[C@]1(O)CC(OC(C)=O)[C@@H](OC(C)=O)C(OC(=O)/C=C/c2ccc(OC(C)=O)c(OC)c2)C1 | ATCC 10231 |  | MIC |  |  | >1000 µg/mL
Cc1c(N2CCCC3(C2)OCCO3)c(F)cn2c(=O)c(C(=O)O)cc(C3CC3)c12 | CCH442 |  | MIC |  |  | >100 µg/mL
Oc1ccc(C=Nc2ccc3cccc(O)c3n2)cc1 |  |  | MIC80 |  |  | 15.63 µg/mL
Oc1c(Cl)ccc2cccnc12 | ATCC 60913 |  | MIC | 48 h |  | 12 µg/mL
COC1=CC(=O)C[C@@H](C)[C@]12Oc1c(Cl)c(OC)cc(OC)c1C2=O | MTCC 227 | broth dilution | MIC |  |  | 1000 µg/mL
Cn1nc(-c2ccc(Cl)c(Cl)c2)[n+]([O-])c2c(=O)n(C)c(=O)nc1-2 | IFO 0583 |  | MIC |  |  | 20 µg/mL
COc1ccc2c(c1OC)CN1CCc3cc4c(cc3[C@@H]1C2)OCO4 | ATCC 10231 |  | MIC |  |  | >1000 µg/mL
O=C(N/N=C/c1ccc(-n2ccnc2)cc1)c1ccccc1 | ATCC 18804 | broth dilution | MIC50 |  |  | >861.1 µM
Cn1nc(-c2ccc(Cl)cc2)[n+]([O-])c2c(=O)n(C)c(=O)nc1-2 | IFO 0583 |  | MIC |  |  | 50 µg/mL
CC(=O)N/N=C(\C)c1ccc(-n2ccnc2)cc1 | ATCC 18804 | broth dilution | MIC50 |  |  | >1030 µM
c1ccc(-c2c(C(c3ccccc3)n3ccnc3)cnn2-c2ccccc2)cc1 |  |  | MIC |  |  | 22 µM
Cc1c(N2CCC(N3CCCCC3)CC2)c(F)cn2c(=O)c(C(=O)O)cc(C3CC3)c12.O=C(O)C(F)(F)F | CCH442 |  | MIC |  |  | >100 µg/mL
O=C(O)c1ccccc1O | PYCC 3436 | broth dilution / turbidity | EC50 |  |  | 0.05 µM
C=C(CCC1(O)O[C@H]2C[C@H]3[C@@H]4CC=C5C[C@@H](O)[C@H](O)[C@@H](O[C@@H]6O[C@H](CO)[C@H](O)[C@H](O)[C@H]6O)[C@]5(C)[C@H]4CC[C@]3(C)[C@H]2[C@@H]1C)CO[C@@H]1O[C@H](CO)[C@@H](O)[C@H](O)[C@H]1O |  |  | MFC |  |  | 10 µg/mL
Clc1ccc(-n2ncc(C(c3ccccc3)n3ccnc3)c2-c2ccccc2)c(Cl)c1 |  |  | MBC |  |  | ≥100 µM
CCCCOC(=O)[C@]1(O)CC(O)[C@@H](O)C(OC(=O)/C=C/c2ccc(O)c(OC)c2)C1 | ATCC 10231 |  | MIC |  |  | >1000 µg/mL
Cc1c(F)c(N2CCC(N)C2)cc2c(C3CC3)cc(C(=O)O)c(=O)n12.Cl | CCH442 |  | MIC |  |  | >100 µg/mL
Oc1ccc(Cl)c2cccnc12 | ATCC 60913 |  | MIC | 48 h |  | 6.2 µg/mL
Cn1nc(-c2ccc(Cl)c(Cl)c2)[n+]([O-])c2c(=O)n(-c3ccccc3)c(=O)nc1-2 | IFO 0583 |  | MIC |  |  | 50 µg/mL
C=C(Cl)/C=C/[C@H](O)CC(=C)C[C@H]1OC2[C@@H](O)[C@]3(O)C[C@@H](O)[C@H](C)[C@H](CCC/C=C\[C@@H]4C[C@@H](O)C[C@]5(C[C@H](OC)CC(CC(=O)[C@@H](C)[C@H](OC(C)=O)[C@@H](C)C(=C)C[C@@H]6C[C@@](C)(O)C[C@]7(C[C@H](OC(C)=O)CC(CC(=O)O[C@@H]([C@@H]1O)[C@H]2C)O7)O6)O5)O4)O3 | ATCC 90028 |  | MIC |  |  | 6.25 µg/mL
NC(=O)OC[C@H](O)[C@@H](O)[C@H](N)C(=O)N[C@H](C(=O)O)[C@H]1O[C@@H](n2cc(C(=O)O)c(=O)[nH]c2=O)[C@H](O)[C@@H]1O | ATCC 10231 |  | MIC |  |  | >100 µg/mL
Oc1cccc(N=Cc2ccc3cccc(O)c3n2)c1 |  |  | MIC80 |  |  | 31.25 µg/mL
O=Cc1cccc(O)c1O | PYCC 3436 | broth dilution / turbidity | EC50 |  |  | 0.01 µM
Cn1nc(-c2ccccc2)nc2c(=O)n(-c3ccccc3)c(=O)nc1-2 | IFO 0583 |  | MIC |  |  | 100 µg/mL
C/C(=N\NC(=O)c1ccc([N+](=O)[O-])cc1)c1ccc(-n2ccnc2)cc1 | ATCC 18804 | broth dilution | MIC50 |  |  | >715.6 µM
C[C@H]1[C@H](O)[C@@H](C)/C=C/C=C/C=C/C=C/C=C/C=C/C=C/[C@H](O[C@@H]2O[C@H](C)[C@@H](O)[C@H](N)[C@@H]2O)C[C@@H]2O[C@](O)(C[C@@H](O)C[C@@H](O)CC[C@H](O)[C@@H](O)C[C@@H](O)CC(=O)O[C@H]1C)C[C@H](O)[C@H]2C(=O)O |  |  | MIC |  |  | 3.7 µM
CC[C@H](N)[C@@H]1CCN(c2c(F)cn3c(=O)c(C(=O)O)cc(C4CC4)c3c2C)C1.Cl | CCH442 |  | MIC |  |  | 12.5 µg/mL
C[C@@H]1CC[C@@]2(OC1)O[C@H]1C[C@H]3[C@@H]4CC=C5C[C@@H](O)[C@H](O)[C@@H](O[C@@H]6OC[C@@H](O)[C@H](O)[C@H]6O[C@@H]6O[C@@H](C)[C@H](O)[C@@H](O)[C@H]6O)[C@]5(C)[C@H]4CC[C@]3(C)[C@H]1[C@@H]2C |  |  | MIC |  |  | ≥20 µg/mL
O=C(NCCc1ccc2c(c1)OCO2)Nc1ccc(Cl)cc1 | Clinical isolate | broth dilution | MIC80 |  | Fluconazole-resistant | >64 µg/mL
O=C(N/N=C\n1ccnc1)c1ccc(Cl)cc1 | ATCC 18804 | broth dilution | MIC50 |  |  | 1010 µM
O=C(NCCc1ccc2c(c1)OCO2)c1ccc([N+](=O)[O-])cc1 | Clinical isolate | broth dilution | MIC80 |  | Fluconazole-resistant | >64 µg/mL
C/C(=N\NC(=S)Nc1ccccc1)c1ccc(-n2ccnc2)cc1 | ATCC 18804 | broth dilution | MIC50 |  |  | >745 µM
Cc1nc2c(=O)n(C)c(=O)nc-2n(C)n1 | IFO 0583 |  | MIC |  |  | 50 µg/mL
CC(=O)N1CCN(c2ccc(OC[C@H]3CO[C@](Cn4ccnc4)(c4ccc(Cl)cc4Cl)O3)cc2)CC1 | Isogenic isolate 9 (25X) |  | MIC |  |  | ≤0.008 µg/mL
C=C1CO[C@@]2(O[C@H]3C[C@H]4[C@@H]5CC=C6C[C@@H](O)[C@H](O)[C@@H](O[C@@H]7O[C@H](CO)[C@H](O)[C@H](O)[C@H]7O)[C@]6(C)[C@H]5CC[C@]4(C)[C@H]3[C@@H]2C)[C@@H](O)C1 |  |  | MIC |  |  | ≥20 µg/mL
CC(C)=CCC/C(C)=C/CCC(C)=CCCC[n+]1ccccc1.Cc1ccc(S(=O)(=O)[O-])cc1 | CCH442 |  | MIC |  |  | 26 µM

Repeating the first 3 entries:

| structure | strain | method | endpoint | conditions | mutations | value |
|---|---|---|---|---|---|---|
| COc1ccc(C=O)c(OC)c1OC | ATCC 90028 | broth dilution | MIC50 |  |  | 1000 µg/mL |
| Cc1c(N2C[C@@H]3CCC[C@@H](N)[C@H]3C2)c(F)cn2c(=O)c(C(=O)O)cc(C3CC3)c12.Cl | CCH442 |  | MIC |  |  | 50 µg/mL |
| CCCCCCCCCCCCCCCC[n+]1ccccc1 | CCH442 |  | EC50 |  |  | 3.7 µM |